Laboratory results taken from article PMC6747051, “Screening of Antiviral Components of Ma Huang Tang and Investigation on the Ephedra Alkaloids Efficacy on Influenza Virus Type A” (Frontiers in Pharmacology, 2019).
Where “and” joins values, the source holds several entries; their conditions need not be identical. Equal entries are not always repeated. Where two headings read alike, the source gives them in different places.

Tested on: influenza A virus
Experiment: Antiviral activity assay in vitro with four ways of drug delivery (MTT, MDCK cells)
Assay type: cell-based, influenza virus A/PR8/34 (H1N1)

Row | Compound | TI | TI (TI = TC50/EC50, Blocking viruses invading host cells) | TI (TI = TC50/EC50, Directly inhibiting virus) | TI (TI = TC50/EC50, Inhibiting the biosynthesis of virus) | TI (TI = TC50/EC50, Intervening the adsorption of virus)
1 | CN[C@@H](C)[C@@H](O)c1ccccc1 [DPEP, D-pseudoephedrine] | 29.04 and 31.33 and 39.27 and 50.81 | – | – | – | –
2 | CN[C@@H](C)[C@H](O)c1ccccc1 [LEP, L-ephedrine] | 19.64 and 30.13 and 34.26 and 38.02 | – | – | – | –
3 | C[C@@H]([C@H](O)c1ccccc1)N(C)C [LMEP, L-methylephedrin] | – | 10.64 | 28.71 | 32.58 | 27.61
